Consider one compound from patent publication EP2924021A1, “ANTI-HIV COMPOUND AND PREPARATION METHOD AND USE THEREOF” (priority 2012, dated 2014).

Each structure is given as a SMILES string. ≈ marks a conversion by molar mass, not a printed value.

In the data set the test system is C8166 cells. Put plainly: Cytotoxicity in C8166 cells (CC50). In kind it is cell-based, human. To be noted: measured twice, average.

The CC50 is the concentration that lowers cell viability or growth by half. For `COc1ccccc1NC(=O)c1cc(N)ccc1Sc1ccc([N+](=O)[O-])cc1` [compound 24, 5-amino-N-(2-methoxyphenyl)-2-((4-nitrophenyl)thio)benzamide], the CC50 was 172.21 µg/mL (≈ 435 µM).
